Tests used:
E. coli [1] = experiment: In vitro anti-microbial assay of linalool trioxolane; conditions: ointment with 1.0% derivative; inoculum approx. 1×10^6 CFUs/1 ml; 7 days and all subsequent sample selections to 28 days; 20°-25° C.
Shigella [2] = experiment: MIC by agar diffusion method; type: cell-based, Shigella spp.; conditions: N=7
Penicillium = experiment: MIC by agar diffusion method; type: cell-based, Penicillium spp.; conditions: N=1
S. aureus [3] = experiment: MIC, broth; type: cell-based, Staphylococcus aureus; conditions: N=10
Leishmania major = experiment: Treatment of mice infected with Leishmania major; type: in vivo, balb/c mice; conditions: n = 15/group
[4] = test system: commonly encountered microorganisms; experiment: Antimicrobial activity in vitro, overall comparison; type: cell-based, bacteria and fungi
Salmonella [5] = experiment: MIC by agar dilution (agar); type: cell-based, Salmonella spp.; conditions: N=3
EPEC/ETEC [6] = experiment: MIC, broth; type: cell-based, enteropathogenic/enterotoxigenic Escherichia coli; conditions: N=5
Salmonella [7] = experiment: MBC by broth method; type: cell-based, Salmonella spp.; conditions: N=3
Cryptococcus = experiment: MIC by agar diffusion method; type: cell-based, Cryptoccus spp.; conditions: N=1
Pseudomonas [8] = experiment: MIC by agar diffusion method; type: cell-based, Pseudomonas spp.; conditions: N=2
Tri. violaceum = experiment: MIC by agar diffusion method; type: cell-based, Trichophyton violaceum; conditions: N=1
Pseudomonas [9] = experiment: MIC, broth; type: cell-based, Pseudomonas spp.; conditions: N=2
Shigella [10] = experiment: MBC by broth method; type: cell-based, Shigella spp.; conditions: N=7
EPEC/ETEC [11] = experiment: MIC by agar diffusion method; type: cell-based, enteropathogenic/enterotoxigenic Escherichia coli
S. epidermidis = experiment: MIC by agar diffusion method; type: cell-based, Staphylococcus epidermidis
C. albicans = experiment: MIC by agar diffusion method; type: cell-based, Candida albicans; conditions: N=5
Salmonella [12] = experiment: MIC, broth; type: cell-based, Salmonella spp.; conditions: N=3
Ph. verrucose = experiment: MIC by agar diffusion method; type: cell-based, Phialophora verrucose; conditions: N=1
Tri. canis = experiment: MIC by agar diffusion method; type: cell-based, Trichophyton canis; conditions: N=1
Pseudomonas [13] = experiment: MIC by agar dilution (agar); type: cell-based, Pseudomonas spp.; conditions: N=2
EPEC/ETEC [14] = experiment: MBC by broth method; type: cell-based, enteropathogenic/enterotoxigenic Escherichia coli; conditions: N=5
EPEC/ETEC [15] = experiment: MIC by agar dilution (agar); type: cell-based, enteropathogenic/enterotoxigenic Escherichia coli; conditions: N=5
[16] = Three-month trial in ARC and lymphoma patients; type: in vivo, human; conditions: three ARC patients and one lymphoma patient
S. aureus [17] = experiment: MIC by agar dilution (agar); type: cell-based, Staphylococcus aureus; conditions: N=10
Candida [18] = experiment: MIC by agar dilution (agar); type: cell-based, Candida spp.; conditions: N=2
Salmonella [19] = experiment: MIC by agar diffusion method; type: cell-based, Salmonella spp.; conditions: N=3
E. coli [20] = experiment: MIC by agar diffusion method; type: cell-based; conditions: N=3
Archromobacter = experiment: MIC by agar diffusion method; type: cell-based; conditions: Achromobacter, N=1
N. gonorrhoea = experiment: MIC by agar diffusion method; type: cell-based, Neisseria gonorrhoea
S. aureus [21] = experiment: MIC by agar diffusion method; type: cell-based, Staphylococcus aureus
Candida [22] = experiment: MIC, broth; type: cell-based, Candida spp.; conditions: N=2
Leishmania donova = experiment: Treatment of mice infected with Leishmania donova; type: in vivo, Balb/c mice; conditions: 20 mg/kg IP daily for 5 days; preliminary
Pseudomonas [23] = experiment: MBC by broth method; type: cell-based, Pseudomonas spp.; conditions: N=2
Candida [24] = experiment: MBC by broth method; type: cell-based, Candida spp.; conditions: N=2
Kiebisella = experiment: MIC by agar diffusion method; type: cell-based, Klebsiella spp.; conditions: Klebsiella, N=1
Shigella [25] = experiment: MIC by agar dilution (agar); type: cell-based, Shigella spp.; conditions: N=7
Shigella [26] = experiment: MIC, broth; type: cell-based, Shigella spp.; conditions: N=7
S. aureus [27] = experiment: MBC by broth method; type: cell-based, Staphylococcus aureus

linalool trioxolane
CFUs present (E. coli [1]): less than 10 CFUs

Geraniol trioxolane
MIC (Shigella [2]): 0.31 mg/mL | MIC (Penicillium): 0.62 mg/mL | MIC broth (S. aureus [3]): 0.78 mg/mL | Dead, Day 14 (Leishmania major; IP): 4 dead | Lesions, Day 0 (Leishmania major; IP): Large lesions | Lesions, Day 14 (Leishmania major; IP): Lesions breaking | Death, Day 14 (Leishmania major; topical ointment 4 mg/ml): No death | General health, Day 14 (Leishmania major; topical ointment 4 mg/ml): Healthy | Lesions, Day 0 (Leishmania major; topical ointment 4 mg/ml): Large lesions | Lesions, Day 14 (Leishmania major; topical ointment 4 mg/ml): Dry lesions | Palate involvement, Day 14 (Leishmania major; topical ointment 4 mg/ml): No palate involvement | Activity compared with conventional drugs ([4]; in vitro, Tables 4-6): more active than conventional drugs | Effect of water on direct bioactivity ([4]; water as diluent): significantly reduces the direct bioactivity | MIC agar (Salmonella [5]): 0.31 mg/mL | MIC broth (EPEC/ETEC [6]): 0.56 mg/mL | MBC (Salmonella [7]): 6.25 mg/mL | MIC (Cryptococcus): 0.15 mg/mL | MIC (Pseudomonas [8]): 0.035 mg/mL | MIC (Tri. violaceum): 0.31 mg/mL | MIC broth (Pseudomonas [9]): 1.56 mg/mL | MBC (Shigella [10]): 3.12 mg/mL | MIC (EPEC/ETEC [11]; N=16): 0.52 mg/mL | lowest concentration inhibiting at least one isolate (EPEC/ETEC [11]; in parentheses): 0.31 mg/mL | MIC (S. epidermidis; N=14): 0.31 mg/mL | lowest concentration inhibiting at least one isolate (S. epidermidis; in parentheses): 0.004 mg/mL | MIC (C. albicans): 0.62 mg/mL | MIC broth (Salmonella [12]): 3.12 mg/mL | MIC (Ph. verrucose): 0.31 mg/mL | MIC (Tri. canis): 0.31 mg/mL | MIC agar (Pseudomonas [13]): 0.035 mg/mL | MBC (EPEC/ETEC [14]): 3.12 mg/mL | MIC agar (EPEC/ETEC [15]): 0.62 mg/mL | Remission after initial treatment [16]: resulted in remission | MIC agar (S. aureus [17]): 0.15 mg/mL | MIC agar (Candida [18]): 0.62 mg/mL | MIC (Salmonella [19]): 0.31 mg/mL | MIC (E. coli [20]): 0.31 mg/mL | MIC (Archromobacter): 0.62 mg/mL | MIC (N. gonorrhoea; N=49): 0.15 mg/mL | lowest concentration inhibiting at least one isolate (N. gonorrhoea; in parentheses): 0.008 mg/mL | MIC (S. aureus [21]; N=16): 0.31 mg/mL | lowest concentration inhibiting at least one isolate (S. aureus [21]; in parentheses): 0.004 mg/mL | MIC broth (Candida [22]): 3.12 mg/mL | Clearing parasites from the viscera (Leishmania donova): perform better than Pentostam | MBC (Pseudomonas [23]): 3.12 mg/mL | MBC (Candida [24]): 3.12 mg/mL | MIC (Kiebisella): 0.017 mg/mL | MIC agar (Shigella [25]): 0.31 mg/mL | MIC broth (Shigella [26]): 1.56 mg/mL | MBC (S. aureus [27]; N=10): 3.12 mg/mL | lowest concentration for corresponding organism (S. aureus [27]; in parentheses): 0.78 mg/mL
